# Results of single-concentration screens

Data taken from ChEMBL document CHEMBL3988442, “University of Dundee, Small-Polar-MMV Screening Library” (2021).

A: 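Growth of Mycobacterium tuberculosis over 3 days (7H9 medium with glucose and tyloxapol); the read-out is not stated. Tested at 500 µM. Higher reads as more growth inhibition (inferred: compounds with an IC50 in retests scored well above the rest). Of about 18,000 compounds tested this way, about 1,400 (7.9%) reached 50% or more in at least one test.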
B: 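Phenotypic screen: M. tuberculosis growth, cholesterol and DPPC medium, 4 days; the read-out is not stated. Compounds at 500 µM. The record gives no direction; compounds that gave an IC50 in retests scored well above the rest, so higher reads as more growth inhibition. Size under these conditions: about 18,000 compounds, about 900 of them at 50% or above in at least one test.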

Values are the deposited “Percent Effect”, in %. The record does not define 0% and 100%; most values in the screen are far below 50% and negative numbers occur (in some assays of this library far below -100). The entries come from a sample that favours strong results. A dash means the value is not listed here; it may have been measured.

structure	A	B
COc1ccc(C(NCCO)C2CCOCC2)cc1 (stereo not given)	10.13%	-
Cn1cc(C(=O)NCc2ccccc2)cn1	40.77%	-
CC(C)N1CCC(C(=O)NCCc2cnccn2)CC1	-	4.706%
O=C(C1CC1)N1CCN(Cc2cccc(F)c2)CC1	65.91%	60.75%
COCCNCCNC(=O)c1csc2ccccc12	40.45%	16.91%
CN(C)CCC(=O)c1ccc(F)cc1	107.7%	116.1%
NCCc1cccc2ncccc12	9.689%	-
COc1cc(CN)cc(Cl)c1OCC(N)=O	13.59%	-4.914%
CCOC(=O)c1nnn(-c2ccc(F)cc2)c1C	20.81%	-
CN(C)c1cc(C(=O)Nc2ccccc2F)ccn1	80.91%	71.15%
COCC1=Nc2ccccc2CN1	-2.079%	-
O[C@@H]1[C@H](O)CNC[C@@H]1O	-	-28.07%
NCCCc1nnc(N)s1	9.272%	-
CCOc1ncc(C(=O)N(C)C)cc1Cl	17.36%	-5.732%
O=C(NC(CO)c1ccccc1)[C@@H](O)c1ccccc1 (stereo not given in full)	24.62%	-
CCc1[nH][nH]c(=O)c1CCN	-	17.75%
CCC(=O)NC1CN(C(=O)OC(C)(C)C)C1	-	8.151%
NCCOc1ccc2c(c1)OCO2	17.75%	12.2%
COC(=O)CN(Cc1ccccc1)C(=O)N(C)C	-2.251%	-
Cn1cc(CN(C(=O)c2ccc(N)nc2)C2CC2)cn1	-3.426%	-
CCOC(=O)c1nn(CC)c2c1CNCC2	14.35%	-
COCc1ccccc1C(=O)NCCN1CCCC1	-	-3.266%
Cc1cccc(NCCC(=O)NC2CCCC2)n1	53.87%	-
O=C1NCCCC1NC1CCSCC1 (stereo not given)	2.086%	-
Cn1ccc(NC(=O)CN2CC[C@](C)(O)C(C)(C)C2)n1	-	-11.57%
O=C(C1CC12CCNCC2)N1CCCC1 (stereo not given)	-	-10.72%
COc1ccc2c(c1)C(C)(O)C(=O)N2 (stereo not given)	-2.427%	-
c1cn(C2CNC2)nn1	-0.4867%	3.733%
CC(C)NC(=O)NCCN(C)C1CCCC1	-1.647%	-
N[C@@H]1C[C@H]1c1cc(F)ccc1F	37%	-
CN1CCC(CNC(=O)CNS(=O)(=O)c2cccs2)C1 (stereo not given)	18.44%	-
Cc1noc(C)c1CN(CCO)C1CC1	-	9.193%
Cc1nn(CCO)c(C)c1CNC(C)Cn1cccn1 (stereo not given)	-	-12.71%
CNCc1nnc(C)o1	-	-6.661%
CN(Cc1ccc2c(c1)OCO2)C(=O)c1cncs1	41.71%	44.4%
CCCOCC(=O)Nc1ncccc1NC(C)=O	38.18%	-
CC(OC(=O)c1ccccc1NCCO)C(N)=O (stereo not given)	-	11.93%
CC(C)(C)OCC(O)CNCc1cccs1 (stereo not given)	8.7%	-
CSCC(=O)Nc1ccc(N2C(=O)CCCC2=O)cc1	5.205%	-
CN(C)C(CNc1ncccc1F)C1CC1 (stereo not given)	-3.032%	-2.447%
CN1CCCCC1CC(=O)NCc1ccc(C#N)cc1 (stereo not given)	-	58.39%
CC(=O)N(C)C1CCN(CC(=O)N2CCCC2)CC1	-	-8.294%
CC(C)(C)C(=O)Nc1ccc(Cl)c(C(N)=O)c1	38.97%	-
CO[C@H]1C[C@@H](O)C12CCN(c1cc(N)ncn1)CC2	2.579%	-
CCNC(=O)c1cccc(CN)c1	0.5806%	-
Cc1ccc(NC(=O)N(C)C[C@H](O)CO)cc1Cl	23.01%	9.63%
CN(CC(=O)NCCC#N)Cc1nc2ccccc2s1	18.32%	-
O=C(NCCOCc1ccccc1)c1ccco1	60.73%	51.04%
CCOCCOC(=O)C1COCCN1CC (stereo not given)	-6.258%	-
Cc1csc(CCNC(=O)C2CCCO2)n1 (stereo not given)	11%	-10.38%
COCC(N)c1ccc(F)c(F)c1 (stereo not given)	4.387%	-
CCOC(=O)CN(c1cccc(F)c1)S(C)(=O)=O	27.67%	-
COc1ccc(CN2CCCC(N(C)C)CC2)cn1 (stereo not given)	-	-26.44%
O=C(c1cccc(C(F)(F)F)c1)N1CCC(O)CC1	19.02%	-
Cc1cc(C(=O)N2CCC(C(N)=O)C2)cc(Cl)c1Br (stereo not given)	68.84%	-
CC(C)n1c(CO)nc2ccccc21	-	4.59%
CC(=O)Cn1cc(S(=O)(=O)N(C)C)ccc1=O	4.608%	-
c1cc(C2CCCN2)n[nH]1 (stereo not given)	-	-9.707%
COCCNC1CCCc2cccnc21 (stereo not given)	3.563%	-
COc1ccc(OC)c(CN(C)CCN(C)C)c1	-	-13.85%
OCCC1CCCN1 (stereo not given)	9.736%	-
CSc1ccc(CN(C)[C@H]2COC[C@@H]2O)cc1	28.67%	-
NCc1ccc(NC(=O)c2ccccc2O)cc1	53.06%	-
c1cncc(CCNc2ccc3nnnn3n2)c1	-2.752%	-1.489%
CC(C)(C)OC(=O)NCCC1CCCNC1 (stereo not given)	23.14%	-
FC(F)(F)c1cccnc1NCC1CCCO1 (stereo not given)	-	1.804%

For reference, 5 entries once more:

{"structure": "Cc1csc(CCNC(=O)C2CCCO2)n1", "stereo": "stereo not given", "A": 11, "B": -10.38}
{"structure": "COCC1=Nc2ccccc2CN1", "A": -2.079}
{"structure": "Cn1cc(CN(C(=O)c2ccc(N)nc2)C2CC2)cn1", "A": -3.426}
{"structure": "Cc1ccc(NC(=O)N(C)C[C@H](O)CO)cc1Cl", "A": 23.01, "B": 9.63}
{"structure": "CC(C)(C)OC(=O)NCCC1CCCNC1", "stereo": "stereo not given", "A": 23.14}